Compound potency records, mixed from different reports. Data source: NIAID ChemDB in PubChem.

Common to all: enzyme or target tests

Rows are shuffled and stem from different studies. ICn is the concentration giving n% inhibition. Blank or dashed fields: not listed here. Inhibition is in % at the dose shown (toxicity tests: loss of growth or viability).

smiles,tested at,protein,measure,organism,read by,strain,value
[2H]C([2H])([2H])OC(=O)N/C=C/CCCc1cc(O)c(C(=O)/C(C)=C/c2cnc(Oc3ccc(F)cc3)s2)c(=O)o1,-,RNA polymerase,IC50,Mycobacterium tuberculosis,nucleotide incorporation / fluorescence,-,0.03 µM
O=C(NO)C(O)C(O)C(O)COP(=O)([O-])[O-],-,Ribose-5-phosphate isomerase,Ki,Mycobacterium tuberculosis,-,-,40 µM
CCc1ccc(-n2cc(Cn3nc(-c4ccccc4)c4c3CCN(C(=O)Nc3ccccc3)C4)nn2)cc1,-,Pantothenate synthetase,IC50,Mycobacterium tuberculosis,absorbance,-,2.56 µM
CCCCN(C(=O)Nc1ccc(F)cc1)[C@@H](CC(=O)OCC)C1O[C@@H]2OC(C)(C)O[C@@H]2[C@H]1OC,100 µM,Alpha-glucosidase,inhibition,Mycobacterium aurum,-,-,85.6%
COC(=O)[C@@H](NC(=O)N(C)CC(=O)N[C@H]1CCCCNC(=O)/C=C/[C@H](Cc2c[nH]c3ccccc23)NC1=O)C(C)C,-,Proteasome,IC50,Mycobacterium tuberculosis,substrate cleavage / fluorescence,-,89.57 µM
CC1(C)[C@H](C(=O)O)N2C(=O)C[C@H]2S1(=O)=O,-,Beta-lactamase,IC50,Mycobacterium tuberculosis,-,TB2,1 µg/mL
O=C(O)[C@]1(O)C=C(c2cn(Cc3ccccc3)nn2)[C@@H](O)[C@H](O)C1,-,Type II dehydroquinase,IC50,Mycobacterium tuberculosis,-,-,3.75 µM
O=C(Nc1ccccc1)N1CCc2c(c(-c3ccccc3)nn2Cc2cn(-c3ccc4c(c3)OCO4)nn2)C1,-,Pantothenate synthetase,IC50,Mycobacterium tuberculosis,absorbance,-,8.39 µM
Cc1c(Br)c(=O)n(C2CCCC2)c2nc(Nc3ccc(N4CCN(C)CC4)cc3)ncc12,-,Protein kinase B,IC50,Mycobacterium tuberculosis,kinase activity / radiometric,-,0.129 µM
O=c1[nH]c(=O)c2[nH]c(=O)c(=O)n(C[C@H](O)[C@H](O)[C@H](O)CO)c2[nH]1,-,Lumazine synthase,Ki,Mycobacterium tuberculosis,-,-,1.4 µM
CC1(C)OC2OC([C@@H]3CC(=O)N(c4ccc(Cl)cc4)C(=O)N3C3CC3)[C@H](Oc3ccccc3)C2O1,100 µM,Alpha-glucosidase,inhibition,Mycobacterium aurum,-,-,0%
O=C(Nc1ccccc1)N1CCc2c(c(-c3ccccc3)nn2Cc2cn(-c3ccc(F)c(F)c3)nn2)C1,-,Pantothenate synthetase,IC50,Mycobacterium tuberculosis,absorbance,-,1.56 µM
O=c1sn(-c2ccc([N+](=O)[O-])cc2Cl)c(=O)n1CC1CC1,-,Alanine racemase,IC50,Mycobacterium smegmatis,HPLC,mc2155,0.43 µM
Cc1ccc(-n2cc(Cn3nc(-c4ccccc4)c4c3CCN(C(=O)Nc3ccccc3)C4)nn2)cc1,-,Pantothenate synthetase,IC50,Mycobacterium tuberculosis,absorbance,-,1.54 µM
CCCCCCCCCCCCN1C(=O)N(c2cccc(C(C)=O)c2)C(=O)C[C@H]1C1OC2OC(C)(C)OC2[C@H]1Oc1ccccc1,100 µM,Alpha-glucosidase,inhibition,Mycobacterium aurum,-,-,28.5%
NNC(=O)c1ccncc1,-,Isocitrate lyase,IC50,Mycobacterium tuberculosis,-,H37RV (INH 10 ug/mL-R),>1000 µM
O=C(Nc1ccccc1)N1CCc2c(c(-c3ccccc3)nn2Cc2cn(-c3ccc(Cl)cc3)nn2)C1,-,Pantothenate synthetase,IC50,Mycobacterium tuberculosis,absorbance,-,6.36 µM
CCn1cc(C(=O)Nc2cc(/C(C)=N\N=C(N)N)cc(/C(C)=N/N=C(N)N)c2)c(=O)c2ccc(C)nc21,10 µM,Protein kinase B,inhibition,Mycobacterium tuberculosis,kinase activity / radiometric,-,99.6%
Cc1cn([C@H]2C[C@H](CN=C(N)C[C@H]3C[C@H](n4cc(C)c(=O)[nH]c4=O)O[C@@H]3CO)[C@@H](CO)O2)c(=O)[nH]c1=O,-,Thymidine monophosphate kinase,Ki,Mycobacterium tuberculosis,-,H37Rv,37 µM
Cc1cn(C/C=C\CN2C(=O)c3cccc4cccc(c34)C2=O)c(=O)n(C)c1=O,-,Thymidine monophosphate kinase,Ki,Mycobacterium tuberculosis,absorbance,-,>100 µM
CCCCCCCCCCCCN1C(=O)N(c2ccc(Cl)cc2)C(=O)C[C@H]1C1OC2OC(C)(C)OC2[C@H]1Oc1ccccc1,100 µM,Alpha-glucosidase,inhibition,Mycobacterium aurum,-,-,41.4%
Cc1[nH+]c2ccccc2c(=O)n1NC(=O)C(=O)N/N=C/c1ccc(O)c(O)c1O,-,Protein kinase B,IC50,Mycobacterium tuberculosis,kinase activity / radiometric,-,0.337 µM
CO[C@H]1/C=C/O[C@@]2(C)Oc3c(C)c(O)c4c(=O)c(c5oc6cc(N7CCN(CC(C)C)CC7)cc(=O)c6nc5c4c3=C2O)NC(=O)/C(C)=C\C=C\[C@H](C)[C@H](O)[C@@H](C)[C@@H](O)[C@@H](C)[C@H](OC(C)=O)[C@@H]1C,10 µg/mL,DNA polymerase,inhibition,Mycobacterium fortuitum,-,F-65,29%
Cc1onc(-c2ccccc2Cl)c1C(=O)N[C@@H]1C(=O)N2[C@@H]1SC(C)(C)[C@@H]2C(=O)O,-,Beta-lactamase,IC50,Mycobacterium tuberculosis,-,TB3,1 µg/mL
C[C@H]1COC2(CCN(c3nc(=O)c4cc(C(F)(F)F)cc([N+](=O)[O-])c4s3)CC2)O1,-,Cytochrome P450 2C19,IC50,Mycobacterium tuberculosis,fluorescence / absorbance,-,5.04 µM
Cn1c(=O)sn(-c2cccc3ccccc23)c1=O,-,Alanine racemase,IC50,Mycobacterium smegmatis,HPLC,mc2155,20.09 µM
CCCCCCCCCCCCCCCCN1C(=O)N(c2ccccc2)C(=O)C[C@H]1C1OC2OC(C)(C)OC2[C@H]1OC,100 µM,Alpha-glucosidase,inhibition,Mycobacterium aurum,-,-,5%
CC(C)c1ccc(-n2c(=O)sn(-c3ccc(SC(F)(F)F)cc3)c2=O)cc1,-,Alanine racemase,IC50,Mycobacterium tuberculosis,HPLC,H37Rv,0.17 µM
CCCCCCCCCCCCN(C(=O)Nc1ccc(Cl)cc1)[C@@H](CC(=O)OCC)C1O[C@@H]2OC(C)(C)O[C@@H]2[C@H]1OC,100 µM,Alpha-glucosidase,inhibition,Mycobacterium aurum,-,-,93.5%
Cc1cccc(Cl)c1-n1sc(=O)n(CC2CC2)c1=O,-,Alanine racemase,IC50,Mycobacterium tuberculosis,HPLC,H37Rv,4.48 µM
COCCN1CCN(C(=O)c2nc3cc(C(F)(F)F)c(C)c([N+](=O)[O-])c3s2)CC1,-,Cytochrome P450 2C9,IC50,Mycobacterium tuberculosis,fluorescence / absorbance,-,>100 µM
O=C(Nc1ccccc1)N1CCc2c(c(-c3ccccc3)nn2Cc2cn(-c3ccc(C(F)(F)F)cc3)nn2)C1,-,Pantothenate synthetase,IC50,Mycobacterium tuberculosis,absorbance,-,5.04 µM
O=c1[nH]c(=O)c2c([nH]1)n(C[C@H](O)[C@H](O)[C@H](O)CO)c(=O)n2CCCCP(=O)(O)O,-,Lumazine synthase,Ki,Mycobacterium tuberculosis,-,-,0.0041 µM
O=C(O)[C@]1(O)C=C(c2ccc3ccccc3c2)[C@@H](O)[C@H](O)C1,-,Type II dehydroquinase,IC50,Mycobacterium tuberculosis,-,-,1.2 µM
O=C(Nc1ccccc1)N1CCc2c(c(-c3ccccc3)nn2Cc2cn(-c3ccccc3[N+](=O)[O-])nn2)C1,-,Pantothenate synthetase,IC50,Mycobacterium tuberculosis,absorbance,-,4.94 µM
Cc1ccc(-n2sc(=O)n(Cc3ccc(F)cc3)c2=O)cc1,-,Alanine racemase,IC50,Mycobacterium tuberculosis,HPLC,H37Rv,0.13 µM
O=C1NC(=O)/C(=C2\CN(CC3CCCCC3)S(=O)(=O)c3ccccc32)S1,-,N-acetyltransferase,IC50,Mycobacterium smegmatis,-,-,>100 µM
COc1ccc(-n2cc(Cn3nc(-c4ccccc4)c4c3CCN(C(=O)Nc3ccccc3)C4)nn2)cc1OC,-,Pantothenate synthetase,IC50,Mycobacterium tuberculosis,absorbance,-,8.21 µM
C/C(=N/NC(=N)N)c1cc(NC(=O)c2ccc(C(=O)Nc3cc(/C(C)=N\NC(=N)N)cc(/C(C)=N/NC(=N)N)c3)s2)cc(/C(C)=N/NC(=N)N)c1,-,Protein kinase B,IC50,Mycobacterium tuberculosis,kinase activity / radiometric,-,0.205 µM
O=c1sn(-c2ccc([N+](=O)[O-])cc2Cl)c(=O)n1C1Cc2ccccc2C1,-,Alanine racemase,IC50,Mycobacterium smegmatis,HPLC,mc2155,>100 µM
CCOC(=O)C[C@@H](C1O[C@@H]2OC(C)(C)O[C@@H]2[C@H]1Oc1ccccc1)N(C(=O)Nc1ccc(Cl)cc1)C1CC1,100 µM,Alpha-glucosidase,inhibition,Mycobacterium aurum,-,-,15.3%
O=C1c2cccc3cccc(c23)C(=O)N1C/C=C\Cn1cc(Br)c(=O)[nH]c1=O,-,Thymidine monophosphate kinase,Ki,Mycobacterium tuberculosis,absorbance,-,1.1 µM
O=C(Nc1ccccc1)N1CCc2c(c(-c3ccccc3)nn2Cc2cn(-c3ccc(Br)c(C(F)(F)F)c3)nn2)C1,-,Pantothenate synthetase,IC50,Mycobacterium tuberculosis,absorbance,-,6.54 µM
O=C(O)[C@]1(O)C=C(c2ccc3sccc3c2)[C@@H](O)[C@H](O)C1,-,Type II dehydroquinase,IC50,Mycobacterium tuberculosis,-,-,2.85 µM
CC(=O)NC1=C2C=CC=C3C(=O)N(C/C=C\Cn4cc(C)c(=O)[nH]c4=O)C(C=C1)C32,-,Thymidine monophosphate kinase,Ki,Mycobacterium tuberculosis,absorbance,-,6 µM
O=C(O)[C@]1(O)C=C(c2ccccc2[N+](=O)[O-])[C@@H](O)[C@H](O)C1,-,Type II dehydroquinase,IC50,Mycobacterium tuberculosis,-,-,109 µM
Cc1cn(CC#CCN2C(=O)c3cccc4cccc(c34)C2=O)c(=O)[nH]c1=O,-,Thymidine monophosphate kinase,Ki,Mycobacterium tuberculosis,absorbance,-,>100 µM

Repeating the first 4 entries:

| smiles | tested at | protein | measure | organism | read by | strain | value |
|---|---|---|---|---|---|---|---|
| [2H]C([2H])([2H])OC(=O)N/C=C/CCCc1cc(O)c(C(=O)/C(C)=C/c2cnc(Oc3ccc(F)cc3)s2)c(=O)o1 | - | RNA polymerase | IC50 | Mycobacterium tuberculosis | nucleotide incorporation / fluorescence | - | 0.03 µM |
| O=C(NO)C(O)C(O)C(O)COP(=O)([O-])[O-] | - | Ribose-5-phosphate isomerase | Ki | Mycobacterium tuberculosis | - | - | 40 µM |
| CCc1ccc(-n2cc(Cn3nc(-c4ccccc4)c4c3CCN(C(=O)Nc3ccccc3)C4)nn2)cc1 | - | Pantothenate synthetase | IC50 | Mycobacterium tuberculosis | absorbance | - | 2.56 µM |
| CCCCN(C(=O)Nc1ccc(F)cc1)[C@@H](CC(=O)OCC)C1O[C@@H]2OC(C)(C)O[C@@H]2[C@H]1OC | 100 µM | Alpha-glucosidase | inhibition | Mycobacterium aurum | - | - | 85.6% |